Pooled drug test results. Numbers come from NIAID ChemDB, via PubChem.

Shared fields: host cell toxicity; cells: H9; measure: CC50

Conditions beyond the fields shown may differ between rows. CCn: concentration that lowers growth or viability of the cells by n%.

smiles | method | result
Cc1cn([C@H]2C[C@H](N=[N+]=[N-])[C@@H](CO)O2)c(=O)[nH]c1=O | MTT | 500 µg/mL
CN[C@H]1C[C@@H](N)[C@H](O)[C@@H](O[C@@H]2O[C@H](CO)[C@H](O)[C@@H]3OC4(O[C@H]23)O[C@H]([C@@H](N)CO)[C@H](O)[C@@H](O)[C@H]4O)[C@@H]1O | MTT | >200 µM
Nc1nc2c(ncn2[C@H]2CC[C@@H](CO)C2)c(=O)o1 | MTT | >500 µg/mL
COc1cc2c(cc1OC)[C@@H](Cc1ccc(O)c(Oc3cc4c(cc3OC)CCN(C)[C@@H]4Cc3ccc(O)cc3)c1)N(C)CC2 | cell count | 7.97 µg/mL
COc1cc(=O)n(C)c2ccccc12 | cell count | 22.7 µg/mL
Nc1nc2c(ncn2[C@@H]2C[C@H](CO)[C@@H](O)[C@H]2O)c(=O)o1 | MTT | >500 µg/mL
CCCCCCCCCCCCCCOC[C@H](CO[C@]1(C(=O)O)C[C@H](O)[C@@H](NC(C)=O)[C@H]([C@H](O)[C@H](O)CO)O1)OCCCCCCCCCCCCCC | MTT | <100 µM
CC(=O)OC1C=C2CC[C@H]3[C@@H]4CC[C@H]([C@H](C)C(=O)O)[C@@]4(C)CC[C@@H]3[C@@]2(C)CC1 | trypan blue | >10 µg/mL
O=c1[nH]cnc2c1ncn2[C@H]1CC[C@@H](CO)O1 | MTT | >500 µg/mL
C[C@@H]1O[C@@H](OC[C@H]2O[C@@H](Oc3c(-c4ccc(O)c(O)c4)oc4cc(O)cc(O)c4c3=O)[C@H](O)[C@@H](O)[C@@H]2O)[C@H](O)[C@H](O)[C@H]1O | cell count | >100 µg/mL
CCCCCCCCCCCCCCCCCCCCCCOC[C@H](CO[C@@]1(C(=O)O)C[C@H](OS(=O)(=O)O)[C@@H](NC(C)=O)[C@H]([C@H](OS(=O)(=O)O)[C@@H](COS(=O)(=O)O)OS(=O)(=O)O)O1)OCCCCCCCCCCCCCCCCCCCCCC | MTT | >200 µM
COc1c(O)ccc2c1cnc1c3cc4c(cc3ccc21)OCO4 | cell count | 22.6 µg/mL
CCCCCCCCCCCCCCCCCCCCCCOCC(C)(COCCCCCCCCCCCCCCCCCCCCCC)CO[C@]1(C(=O)O)C[C@H](OS(=O)(=O)O)[C@@H](NC(C)=O)[C@H]([C@H](OS(=O)(=O)O)[C@@H](COS(=O)(=O)O)OS(=O)(=O)O)O1 | MTT | >200 µM
CC(C)[C@H](NC(=O)OCc1ccccc1)C(=O)N[C@@H](Cc1ccccc1)[C@H](O)[C@H](Cc1ccccc1)NC(=O)[C@@H](NC(=O)OCc1cccnc1)C(C)C | trypan blue | 20 µM
[N-]=[N+]=NCc1cc(CN=[N+]=[N-])cc(C(=O)CC(=O)C(=O)O)c1 | XTT | 60 µM
CC(C)[C@H](NC(=O)OCc1ccccn1)C(=O)NC(Cc1ccccc1)C(O)C(F)(F)C(N)Cc1ccccc1 | trypan blue | 130 µM
COc1cc2oc(-c3ccccc3)cc(=O)c2c(O)c1OC | cell count | 20.2 µg/mL
Oc1ccc(C[C@@H]2NCCc3cc(O)c(O)cc32)cc1 | cell count | 20 µg/mL
CC(C)C(NC(=O)OCc1ccncc1)C(=O)N[C@@H](Cc1ccccc1)C(O)[C@H](Cc1ccccc1)NC(=O)C(NC(=O)OCc1ccncc1)C(C)C | trypan blue | >100 µM
CC(C)=CCC/C(C)=C/CC/C(C)=C/CC/C=C(\C)CC/C=C(\C)CCC=C(C)C | cell count | 1.93 µg/mL
CO[C@]1(C(=O)O)C[C@H](OS(=O)(=O)O)[C@@H](NC(C)=O)[C@H]([C@H](OS(=O)(=O)O)[C@@H](COS(=O)(=O)O)OS(=O)(=O)O)O1 | MTT | >200 µM
COc1c2ccoc2nc2c(OC)c(O)ccc12 | cell count | 23.2 µg/mL
CCCCCCCCCCCCCCCCCCOC[C@H](CO[C@]1(C(=O)O)C[C@H](OS(=O)(=O)O)[C@@H](NC(C)=O)[C@H]([C@H](OS(=O)(=O)O)[C@@H](COS(=O)(=O)O)OS(=O)(=O)O)O1)OC | MTT | >200 µM
Cc1cn([C@H]2C[C@H](N=[N+]=[N-])[C@@H](CO)O2)c(=O)[nH]c1=O | turbidity / cell count | 1870 µM
CCCCCCCCCCCCCCCCCCCCCCOC[C@H](CO[C@]1(C(=O)O)C[C@H](OS(=O)(=O)O)[C@@H](NC(C)=O)[C@H]([C@H](OS(=O)(=O)O)[C@@H](COS(=O)(=O)O)OS(=O)(=O)O)O1)OCCCCCCCCCCCCCCCCCCCCCC | MTT | >200 µM
O=c1[nH]cnc2c1ncn2[C@H]1CC[C@@H](CO)O1 | MTT | >100 µg/mL
COc1ccc2c(c1OC)C(CC(C)=O)N(C)c1c-2ccc2cc3c(cc12)OCO3 | cell count | 2.32 µg/mL
O=c1c(O[C@@H]2O[C@H](CO)[C@H](O)[C@H](O)[C@H]2O[C@@H]2OC[C@@H](O)[C@H](O)[C@H]2O)c(-c2ccc(O)c(O)c2)oc2cc(O)cc(O)c12 | cell count | >100 µg/mL
CC(C)[C@H](NC(=O)N(C)Cc1ccccn1)C(=O)N[C@@H](Cc1ccccc1)[C@@H](O)[C@H](O)[C@H](Cc1ccccc1)NC(=O)[C@@H](NC(=O)N(C)Cc1ccccn1)C(C)C | trypan blue | >100 µM
COc1c(C)c(O)c(C(=O)/C=C(\O)c2ccccc2)c(O)c1C=O | cell count | 10.7 µg/mL
COc1cc2c(cc1OC)N1CCc3cc4c(cc3[C@@H]1CC2)OCO4 | cell count | 2.25 µg/mL
CC1NCCc2cc(O)c(O)cc21 | MTT | 25 µg/mL